Anti-infective test results gathered from many reports (values: NIAID ChemDB through PubChem).

All rows: tests in culture; organism: Mycobacterium smegmatis

Blank or dashed fields: not listed here. ECn is the concentration giving n% inhibition of infection, replication or growth. Two numbers with a dash give a range or band. MIC50, MIC90 and the like: level of inhibition, or share of isolates inhibited. Conditions beyond the fields shown may differ between rows.

smiles,measure,read by,strain,result
NC1CCN(CCCCn2ccc(Nc3ccc(COCCNCC4CC4)cn3)nc2=O)CC1,MIC,turbidity,-,8–32 µg/mL
COc1c(N2C[C@@H]3CCCN[C@@H]3C2)c(F)cc2c(=O)[nH]c(=O)n(C3CC3)c12,MIC99,-,G89C mutant,50 µg/mL
CC(C)(C)CC(C)(C)NCCNC(C)(C)CC(C)(C)C,EC50,-,ATCC 607,<30 µg/mL
CCCCCCCCCCCCCCCCCOC(=O)NC(CCC(=O)O)(CCC(=O)O)CCC(=O)O,MIC,-,mc155,27 µg/mL
CC(C)NCCCCNC(C)C,EC50,-,ATCC 607,>1000 µg/mL
O=C(O)c1cn(C2CC2)c2cc(N3C[C@@H]4CCCN[C@@H]4C3)c(F)cc2c1=O,MIC99,-,G89C mutant,2 µg/mL
Cc1ccccc1NC(=O)CCc1[nH]c2ccccc2c1C1=C(Br)C(=O)NC1=O,MIC,-,SG987,25 µg/mL
NC1CCN(CCCCn2ccc(Nc3cc(C(=O)N4CCNCC4)ccn3)nc2=O)CC1,MIC,turbidity,-,8–32 µg/mL
CCC1CN(c2c(F)cc3c(=O)n(N)c(=O)n(C4CC4)c3c2OC)CCN1,MIC99,-,WT,10 µg/mL
CCCCCCCCCN(CCCCCCCCC)C(=O)NC(CCC(=O)O)(CCC(=O)O)CCC(=O)O,MIC,-,mc155,105 µg/mL
CC(C)(C)NCCNC(C)(C)C,EC50,-,ATCC 607,<500 µg/mL
COc1c(N2CC[C@@H](CN)C2)c(F)cc2c(=O)n(N)c(=O)n(C3CC3)c12,MIC99,-,D95Y mutant,5 µg/mL
NC1CCN(CCCCn2ccc(Nc3cc(C(=O)N4CCN(CO)CC4)ccn3)nc2=O)CC1,MIC,turbidity,-,32–128 µg/mL
CCCCCCCCCCCCCCCCCCCCCCOC(=O)NC(C)(CCC(=O)O)CCC(=O)O,MIC,-,mc155,630 µg/mL
CCC1CN(c2c(F)cc3c(=O)c(C(=O)O)cn(C4CC4)c3c2OC)CCN1,MIC99,-,WT,0.031 µg/mL
NNC(=O)c1ccncc1,MIC,-,MC^2 144,5 µg/mL
COc1c(N2C[C@@H]3CCCN[C@@H]3C2)c(F)cc2c(=O)n(N)c(=O)n(C3CC3)c12,MIC99,-,D95Y mutant,100 µg/mL
COc1cccc(-c2[nH]c3ccccc3c2C2=C(Br)C(=O)N(C)C2=O)c1,MIC,-,SG987,3.125 µg/mL
NC1CCN(CCCCn2ccc(Nc3cc(CO)ccn3)nc2=O)CC1,MIC,turbidity,-,32–128 µg/mL
COc1ccc(-c2[nH]c3ccccc3c2C2=C(Br)C(=O)N(C)C2=O)cc1,MIC,-,SG987,12.5 µg/mL
NC1CCN(CCCCn2ccc(Nc3ccc(CNC4CNC4)cn3)nc2=O)CC1,MIC,turbidity,-,8–32 µg/mL
Cc1ccccc1NC(=O)CCCCCCc1[nH]c2ccccc2c1C1=C(Br)C(=O)NC1=O,MIC,-,SG987,0.25 µg/mL
COc1c(N2CC[C@H](N)C2)c(F)cc2c(=O)[nH]c(=O)n(C3CC3)c12,MIC99,-,A91V mutant,200 µg/mL
Cc1ccccc1NC(=O)CCCc1[nH]c2ccccc2c1C1=C(Br)C(=O)NC1=O,MIC,-,SG987,8 µg/mL
CCCCCCCCCCCCCCCCCCOC(=O)NC(C)(CCC(=O)O)CCC(=O)O,MIC,-,mc155,69 µg/mL
CC(C)N(C)CCN(C)C(C)C,EC50,-,ATCC 607,>250 µg/mL
CN1C(=O)C(Br)=C(c2c(-c3ccccc3)[nH]c3ccccc23)C1=O,MIC,-,SG987,12.5 µg/mL